For some of these results: Negatives hold for the conditions tested. At least one verdict was read from the data and is not stated in words by the source. For some of these results: Where a protein sequence is shown, tags need not be part of it. Construct, isoform or probe ends are uncertain for at least one entry. For some of these results: Results from cells or extracts need not show a direct contact.
Key:
[1] = biological target: T1, ComL (native) (Neisseria meningitidis H44/76) (UniProt Q9K0B1); experiment: solid-phase overlay (Southwestern); settings: protein in an extract, label: 5'-32P
T1 sequence (looked up, limits assumed): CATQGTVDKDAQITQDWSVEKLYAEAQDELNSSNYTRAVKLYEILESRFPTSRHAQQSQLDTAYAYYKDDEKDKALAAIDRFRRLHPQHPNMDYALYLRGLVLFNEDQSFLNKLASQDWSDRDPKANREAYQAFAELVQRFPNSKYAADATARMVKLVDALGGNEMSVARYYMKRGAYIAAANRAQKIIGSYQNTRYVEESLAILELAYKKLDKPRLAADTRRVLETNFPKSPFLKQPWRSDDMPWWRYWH

[2] = biological target: T2, SSB (native) (Neisseria meningitidis H44/76, MC58, Z2491) (UniProt P66849); experiment: solid-phase overlay (Southwestern); settings: protein in an extract, label: 5'-32P
T2 sequence (looked up, limits assumed): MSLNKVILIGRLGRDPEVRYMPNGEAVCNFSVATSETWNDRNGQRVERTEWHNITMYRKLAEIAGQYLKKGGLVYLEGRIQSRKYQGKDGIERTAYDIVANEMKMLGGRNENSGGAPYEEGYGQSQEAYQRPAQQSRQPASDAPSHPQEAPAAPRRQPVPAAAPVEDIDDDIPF

[3] = biological target: T3, ComL (Neisseria meningitidis MC58) (UniProt Q9K0B1); experiment: EMSA; settings: EMSA: 4.5 fmol DNA in 10 µl, 10% glycerol, 5 mM MgCl2, 0.02 mg/ml BSA, 1 mM DTT, with half volume of protein in 50 mM NaH2PO4, 300 mM NaCl, pH 8.0, recombinant protein, protein details: C-terminal 6xHis, label: 5'-32P
T3 sequence (looked up, limits assumed): T1 sequence (looked up, limits assumed)

[4] = biological target: T4, PilQ (native) (Neisseria meningitidis) (UniProt Q70M91); experiment: solid-phase overlay (Southwestern); settings: possible outer membrane contamination; protein in an extract; label: 5'-32P; single-stranded DNA
T4 sequence (looked up, limits assumed): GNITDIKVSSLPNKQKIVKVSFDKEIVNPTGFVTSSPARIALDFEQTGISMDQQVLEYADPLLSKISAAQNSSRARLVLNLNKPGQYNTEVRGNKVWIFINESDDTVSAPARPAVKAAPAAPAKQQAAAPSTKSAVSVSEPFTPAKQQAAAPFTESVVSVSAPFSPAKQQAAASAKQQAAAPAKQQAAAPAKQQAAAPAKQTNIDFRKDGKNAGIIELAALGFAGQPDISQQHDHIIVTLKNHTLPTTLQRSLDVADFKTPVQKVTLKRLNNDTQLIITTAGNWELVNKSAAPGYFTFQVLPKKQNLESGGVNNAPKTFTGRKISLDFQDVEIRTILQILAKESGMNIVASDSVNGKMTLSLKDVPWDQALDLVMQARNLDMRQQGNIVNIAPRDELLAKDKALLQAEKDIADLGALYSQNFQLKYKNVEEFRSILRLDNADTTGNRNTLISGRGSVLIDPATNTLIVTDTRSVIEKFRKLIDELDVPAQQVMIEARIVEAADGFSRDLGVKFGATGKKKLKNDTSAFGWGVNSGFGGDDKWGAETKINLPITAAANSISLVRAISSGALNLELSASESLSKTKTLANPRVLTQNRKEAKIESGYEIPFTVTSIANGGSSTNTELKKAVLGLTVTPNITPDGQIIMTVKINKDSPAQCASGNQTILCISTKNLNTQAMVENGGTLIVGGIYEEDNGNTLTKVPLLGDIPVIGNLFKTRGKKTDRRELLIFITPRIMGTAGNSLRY

[5] = biological target: PilG (native) (Neisseria meningitidis) (UniProt Q7DDR1); experiment: solid-phase overlay (Southwestern); settings: protein in an extract; label: 5'-32P; single-stranded DNA
[6] = biological target: T5, NMB1963 (Neisseria meningitidis) (UniProt Q9JXN1); experiment: solid-phase overlay (Southwestern); settings: protein in an extract; label: 5'-32P; single-stranded DNA
T5 sequence (looked up, limits assumed): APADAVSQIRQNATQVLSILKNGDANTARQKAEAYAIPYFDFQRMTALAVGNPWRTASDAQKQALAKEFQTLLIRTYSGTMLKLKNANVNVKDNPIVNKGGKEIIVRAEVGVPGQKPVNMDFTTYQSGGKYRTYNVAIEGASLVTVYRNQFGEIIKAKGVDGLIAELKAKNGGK

[7] = biological target: T6, NMB1796 (Neisseria meningitidis) (UniProt Q9JY11); experiment: solid-phase overlay (Southwestern); settings: protein in an extract; label: 5'-32P; single-stranded DNA
T6 sequence (looked up, limits assumed): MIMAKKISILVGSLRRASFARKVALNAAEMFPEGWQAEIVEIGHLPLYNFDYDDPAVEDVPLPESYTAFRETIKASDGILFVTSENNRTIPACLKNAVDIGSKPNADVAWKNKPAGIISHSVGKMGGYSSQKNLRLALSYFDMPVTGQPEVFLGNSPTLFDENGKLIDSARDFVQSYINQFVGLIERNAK

[8] = EDTA or no additive (no Mg2+), single-stranded DNA

CAACAACAACAACAGGCCTGTCATCCAAACTGACAGGCCAACAACAACAACA [T3 ssDNA without DUS]
binding result ([1]; single-stranded DNA): binds
binding result ([2]; single-stranded DNA): binds

AACAACAACAAAAGGCCTGTCATCCAACTTCCGGACAGTAAACAACAACAAC (double strand) [HH10/HH11 dsDNA without DUS]
binding result ([3]; EDTA or no additive (no Mg2+)): no binding

AACAACAACAAATGCCGTCTGAACCAACATGCCGTCTGAAAACAACAACAAC [HH7 ssDNA with 12 bp DUS]
binding result ([3]; 5 mM Mg2+, same results as without DUS, single-stranded DNA): binds
binding result [3, 8]: no binding

AACAACAACAAAAGGCCTGTCATCCAACTTCCGGACAGTAAACAACAACAAC [HH10 ssDNA without DUS]
binding result [3, 8]: no binding

AACAACAACAAATGCCGTCTGAACCAACATGCCGTCTGAAAACAACAACAAC (double strand) [HH7/HH8 dsDNA with 12 bp DUS]
binding result ([3]; 5 mM Mg2+, same results as without DUS): binds
binding result ([3]; EDTA or no additive (no Mg2+)): no binding

CAACAACAACAACAGCCGTCTGAACCAAATTCAGACGGCAACAACAACAACA (double strand) [T1T2 dsDNA with 10 bp DUS]
binding result [1]: binds
binding result [2]: binds

CAACAACAACAACAGCCGTCTGAACCAAATTCAGACGGCAACAACAACAACA [T1 ssDNA with 10 bp DUS]
binding result [4]: binds
binding result [5]: binds
binding result [6]: binds
binding result [7]: binds
binding result ([1]; single-stranded DNA): binds
binding result ([2]; single-stranded DNA): binds
